According to patent publication US20180185408A1, “ANTIFUNGAL NYLON-3 POLYMERS AND COMBINATION THERAPY USING THEM TO TREAT FUNGAL INFECTIONS” (priority 2016, published 2018):
“And” between values parts separate entries of the source, which are not always exact repeats. Equal entries are not always repeated. Where two headings read alike, the source gives them in different places.

Tested on: Aspergillus fumigatus
Assay: Checkerboard microdilution synergy (FIC)
Assay type: cell-based
Details: for MIC: Aspergillus fumigatus, 48 h; for MIC / MIC azole alone / FICazole / MIC azole combination: 35° C.; for FICazole / MIC azole combination: MM:TM with ITRA
[1] = isolate 08-12-12-13 Cyp51 [TR34/L98H], trial 1, batch 7, 48 hours
[2] = isolate 08-19-02-61 Cyp51 [TR34/L98H], trial 1, batch 7, 48 hours
[3] = isolate 08-19-02-61 Cyp51 [TR34/L98H], trial 2, batch 8, 48 hours
[4] = isolate 08-31-08-91 Cyp51 [TR34/L98H], trial 1, batch 7, 48 hours
[5] = isolate 08-31-08-91 Cyp51 [TR34/L98H], trial 2, batch 8, 48 hours
[6] = isolate 08-36-03-25 Cyp51 [TR34/L98H], trial 1, batch 7, 48 hours
[7] = isolate 08-36-03-25 Cyp51 [TR34/L98H], trial 2, batch 8, 48 hours
[8] = isolate 12-7505220 Cyp51 [TR34/L98H], trial 1, batch 7, 48 hours
[9] = isolate D5 Cyp51 [G54E], trial 1, batch 7, 48 hours
[10] = isolate D5 Cyp51 [G54E], trial 2, batch 8, 48 hours
[11] = isolate D9 Cyp51 [M220K], trial 1, batch 7, 48 hours
[12] = isolate D9 Cyp51 [M220K], trial 2, batch 8, 48 hours

CC[C@@H]([C@H](C)O)n1ncn(-c2ccc(N3CCN(c4ccc(OC[C@@H]5CO[C@@](Cn6cncn6)(c6ccc(F)cc6F)C5)cc4)CC3)cc2)c1=O [Posaconazole, posaconazole]
3 µg/mL and 4.28 µM: MIC (read-out: MIC azole alone, D5 Cyp51 [G54E], POS as single agent, OD600, 48 h)
0.75 µg/mL and 1.07 µM: MIC (read-out: MIC azole alone, D6 Cyp51 [G54V], POS as single agent, OD600, 48 h)
1.5 µg/mL and 2.14 µM: MIC (read-out: MIC azole alone, 08-19-02-61 Cyp51 [TR34/L98H], POS as single agent, OD600, 48 h) | MIC (read-out: MIC azole alone, 08-31-08-91 Cyp51 [TR34/L98H], POS as single agent, OD600, 48 h)
0.25 µg/mL: MIC azole in combination
0.375 µg/mL and 0.54 µM: MIC (read-out: MIC azole alone, 12-7505220 Cyp51 [TR34/L98H], POS as single agent, OD600, 48 h)

CCC(C)n1ncn(-c2ccc(N3CCN(c4ccc(OCC5COC(Cn6cncn6)(c6ccc(Cl)cc6Cl)O5)cc4)CC3)cc2)c1=O (centres unmarked) [Itraconazole, itraconazole]
68.02 µM: MIC azole combination [3]
17 µM: MIC (read-out: MIC azole alone, MM:TM with ITRA, isolate 08-12-12-13 Cyp51 [TR34/L98H], trial 2, batch 8, 48 hours) | MIC (read-out: MIC azole alone, MM:TM with ITRA, isolate 12-7505220 Cyp51 [TR34/L98H], trial 2, batch 8, 48 hours)
68 µM: MIC (read-out: MIC azole alone, F11628, ITRA as single agent, OD600, 48 h) | MIC (read-out: MIC azole alone, MM:TM with ITRA, isolate D6 Cyp51 [G54V], trial 2, batch 8, 48 hours)
0.75 µg/mL: MIC (D7 Cyp51 [WT], ITRA as single agent, OD600, 48 h, read-out: MIC azole alone)
>68.02 µM and 102.04 µM: MIC azole alone (F11628, ITRA as single agent, OD600, 48 h)
0.500: FICazole [3]
34 µM: MIC (read-out: MIC azole alone, MM:TM with ITRA, isolate 12-7505446 Cyp51 [TR34/L98H], trial 2, batch 8, 48 hours)
> 68 µM: MIC (read-out: MIC azole alone, F16216, ITRA as single agent, OD600, 48 h) | MIC (read-out: MIC azole alone, MM:TM with ITRA, isolate 08-12-12-13 Cyp51 [TR34/L98H], trial 1, batch 7, 48 hours) | MIC (read-out: MIC azole alone, MM:TM with ITRA, isolate 08-19-02-61 Cyp51 [TR34/L98H], trial 1, batch 7, 48 hours) | MIC (read-out: MIC azole alone, MM:TM with ITRA, isolate 08-19-02-61 Cyp51 [TR34/L98H], trial 2, batch 8, 48 hours) | MIC (read-out: MIC azole alone, MM:TM with ITRA, isolate 08-31-08-91 Cyp51 [TR34/L98H], trial 1, batch 7, 48 hours) | MIC (read-out: MIC azole alone, MM:TM with ITRA, isolate 08-31-08-91 Cyp51 [TR34/L98H], trial 2, batch 8, 48 hours) | MIC (read-out: MIC azole alone, MM:TM with ITRA, isolate 08-36-03-25 Cyp51 [TR34/L98H], trial 1, batch 7, 48 hours) | MIC (read-out: MIC azole alone, MM:TM with ITRA, isolate 08-36-03-25 Cyp51 [TR34/L98H], trial 2, batch 8, 48 hours) | MIC (read-out: MIC azole alone, MM:TM with ITRA, isolate 12-7505220 Cyp51 [TR34/L98H], trial 1, batch 7, 48 hours) | MIC (read-out: MIC azole alone, MM:TM with ITRA, isolate D5 Cyp51 [G54E], trial 1, batch 7, 48 hours) | MIC (read-out: MIC azole alone, MM:TM with ITRA, isolate D5 Cyp51 [G54E], trial 2, batch 8, 48 hours) | MIC (read-out: MIC azole alone, MM:TM with ITRA, isolate D6 Cyp51 [G54V], trial 1, batch 7, 48 hours) | MIC (read-out: MIC azole alone, MM:TM with ITRA, isolate D9 Cyp51 [M220K], trial 1, batch 7, 48 hours) | MIC (read-out: MIC azole alone, MM:TM with ITRA, isolate D9 Cyp51 [M220K], trial 2, batch 8, 48 hours)
34.01 µM: MIC azole combination (isolate D6 Cyp51 [G54V], trial 1, batch 7, 48 hours)
1.000: FICazole [1] | FICazole [2] | FICazole [4] | FICazole [5] | FICazole [6] | FICazole [7] | FICazole [8] | FICazole [9] | FICazole [10] | FICazole [11] | FICazole [12]
>68.02 µM: MIC azole combination [1] | MIC azole combination [2] | MIC azole combination [4] | MIC azole combination [5] | MIC azole combination [6] | MIC azole combination [7] | MIC azole combination [8] | MIC azole combination [9] | MIC azole combination [10] | MIC azole combination [11] | MIC azole combination [12]
0.27 µM: MIC azole combination (isolate 12-7505446 Cyp51 [TR34/L98H], trial 1, batch 7, 48 hours)
4.25 µM: MIC (read-out: MIC azole alone, MM:TM with ITRA, isolate 12-7505446 Cyp51 [TR34/L98H], trial 1, batch 7, 48 hours) | MIC azole combination (isolate 08-12-12-13 Cyp51 [TR34/L98H], trial 2, batch 8, 48 hours) | MIC azole combination (isolate 12-7505220 Cyp51 [TR34/L98H], trial 2, batch 8, 48 hours)
> 48 µg/mL: MIC (read-out: MIC azole alone, 08-19-02-61 Cyp51 [TR34/L98H], ITRA as single agent, OD600, 48 h) | MIC (read-out: MIC azole alone, 08-31-08-91 Cyp51 [TR34/L98H], ITRA as single agent, OD600, 48 h) | MIC (read-out: MIC azole alone, 08-36-03-25 Cyp51 [TR34/L98H], ITRA as single agent, OD600, 48 h) | MIC (read-out: MIC azole alone, D5 Cyp51 [G54E], ITRA as single agent, OD600, 48 h) | MIC (read-out: MIC azole alone, D6 Cyp51 [G54V], ITRA as single agent, OD600, 48 h) | MIC (read-out: MIC azole alone, D9 Cyp51 [M220K], ITRA as single agent, OD600, 48 h)
48 µg/mL and 72 µg/mL: MIC azole alone (D6 Cyp51 [G54V], ITRA as single agent, OD600, 48 h)
1.06 µM: MIC azole combination (isolate 12-7505446 Cyp51 [TR34/L98H], trial 2, batch 8, 48 hours) | MIC azole combination (isolate D6 Cyp51 [G54V], trial 2, batch 8, 48 hours)
